Anti-infective test results gathered from many reports (values: NIAID ChemDB through PubChem).

All rows: target-level tests; organism: HIV-1; target: Protease; endpoint: IC50

ICn: concentration for n% inhibition.

structure	strain	method	setting	value
CC[C@H](C)[C@H](NC(=O)[C@@H]1CCCN1C(=O)[C@H](O)[C@H](Cc1ccccc1)NC(=O)[C@H](CC(N)=O)NC(=O)[C@H](Cc1ccccc1)NC(=O)[C@@H](N)CO)C(=O)N[C@H](C(N)=O)C(C)C		HPLC		0.005 µM
C[C@@H]1O[C@@H](O[C@H]2[C@H](Oc3cc(O)c4c(c3)O[C@H](c3ccc(O)cc3)CC4=O)O[C@H](CO)[C@@H](O)[C@@H]2O)[C@H](O)[C@H](O)[C@H]1O	SF2	HPLC / fluorescence		220 µM
CC(C)(C)NC(=O)[C@@H]1CSCN1C(=O)[C@@H](O)[C@H](Cc1ccccc1)NC(=O)[C@@H](NC(=O)COc1cccc2ccccc12)C(C)(C)C		HPLC		0.0041 µM
CC(C)[C@H](NC(=O)CCN1CCOCC1)C(=O)N[C@@H](Cc1ccccc1)[C@@H](O)[C@H](O)[C@H](Cc1ccccc1)NC(=O)[C@@H](NC(=O)CCN1CCOCC1)C(C)C		fluorescence		<0.1 µM
Cc1ccc(Cl)cc1N1CCN(Cc2cn([C@@H](Cc3ccccc3)[C@H](Cc3ccccc3)NC(=O)OCC3CC3)nn2)CC1		fluorescence		<5 µM
O=C(O)CN(CC(=O)O)Cc1cc2c(c(O)c1O)C(=O)c1ccccc1C2=O		fluorescence		190 µM
CC(C)[C@H](NC(=O)N(C)Cc1ccccn1)C(=O)N[C@@H](Cc1ccccc1)C(O)[C@H](Cc1ccccc1)NC(=O)[C@@H](NC(=O)N(C)Cc1ccccn1)C(C)C		fluorescence		<0.05 µM
CC(C)C[C@H](NC(=O)[C@@H](NC(=O)CCCCCCCCCCCCCCC(=O)N[C@@H](CC(N)=O)C(=O)N[C@@H](Cc1ccccc1)C(=O)O)C(C)O)C(=O)N[C@@H](Cc1ccccc1)C(N)=O		HPLC		5.4 µM
CC(C)(C)OC(=O)N[C@@H](Cc1ccccc1)[C@H](O)CNC[C@@H](O)[C@H](Cc1ccccc1)NC(=O)c1ccc2ccccc2c1		HPLC	pH 5.5	<10 µM
O=c1c(O)c(-c2ccc(O)cc2O)oc2cc(O)cc(O)c12	SF2	HPLC / fluorescence		24 µM
CC(C)(C)NC(=O)[C@H]1N(C(=O)[C@@H](O)[C@H](Cc2ccccc2)NC(=O)[C@H](CC(N)=O)NC(=O)COc2ccc(-c3ccccc3)cc2)CSC1(C)C		HPLC		0.0022 µM
COC(=O)[C@]12CCC(C)(C)CC1C1=CCC3[C@@]4(C)CC[C@H](NC(=O)CCCCC(=O)N[C@H]5CC[C@@]6(C)C(CC[C@]7(C)C6CC=C6C8CC(C)(C)CC[C@]8(C(=O)OC)CC[C@]67C)C5(C)C)C(C)(C)C4CC[C@@]3(C)[C@]1(C)CC2		HPLC		>20 µM
O=c1cc(-c2cc(O)c(O)c(O)c2)oc2c(O)c(O)c(O)c(O)c12	SF2	HPLC / fluorescence		11 µM
CCC(C)[C@H](NC(=O)CCCCCCCCCCCCCCC(=O)N[C@@H](CC(N)=O)C(=O)N[C@@H](CCc1ccccc1)C(=O)O)C(=O)N[C@@H](Cc1ccccc1)C(N)=O		HPLC		0.792 µM
Oc1ccc2c(O)c3ccccc3cc2c1O		fluorescence		62 µM
CC(C)(C)OC(=O)N[C@@H](Cc1ccccc1)[C@H](O)CNC[C@@H](O)[C@H](Cc1ccccc1)NC(=O)COc1cccc2ccccc12		HPLC	pH 5.5	~10 µM
NC(=O)C[C@H](NC(=O)CCCCCCCCCCCCCCC(=O)N[C@@H](CC1CCCCC1)C(=O)N[C@@H](Cc1ccccc1)C(N)=O)C(=O)N[C@@H](Cc1ccccc1)C(=O)O		HPLC		>1 µM
Cc1ccc(Cl)cc1N1CCN(Cc2cn([C@@H](Cc3ccccc3)[C@H](Cc3ccccc3)NC(=O)OCC3CCC3)nn2)CC1		fluorescence		<5 µM
CC[C@H](C)[C@H](NC(=O)[C@@H]1CCCN1C(=O)[C@@H](O)[C@H](Cc1ccccc1)NC(=O)[C@H](CC(N)=O)NC(=O)[C@H](Cc1ccccc1)NC(=O)[C@@H](N)CO)C(=O)N[C@H](C(N)=O)C(C)C		HPLC		0.94 µM
O=C(N[C@@H](Cc1ccccc1)[C@H](Cc1ccccc1)n1cc(CN2CCN(c3ccc(F)cc3)CC2)nn1)OC1CCCC1		fluorescence		<5 µM
COC(=O)[C@]12CCC(C)(C)C[C@H]1C1=CC[C@@H]3[C@@]4(C)CC[C@H](NC(=O)CCCCC(=O)OC[C@H]5O[C@@H](n6cc(C)c(=O)[nH]c6=O)C[C@@H]5N=[N+]=[N-])C(C)(C)[C@@H]4CC[C@@]3(C)[C@]1(C)CC2		HPLC		20 µM
CC(C)(C)CNC(=O)[C@@H]1CCCN1C(=O)[C@@H](O)[C@H](Cc1ccccc1)NC(=O)[C@H](CC(N)=O)NC(=O)OCc1ccccc1		HPLC		0.868 µM
O=c1c(O)c(-c2ccc(O)c(O)c2)oc2cc(O)ccc12	SF2	HPLC / fluorescence		50 µM
O=C1c2ccccc2C(=O)c2c(O)c(O)cc(O)c21		fluorescence		100 µM
CC1(C)CCC[C@@]1(O)C(=O)N[C@@H](Cc1ccccc1)[C@H](O)CNC[C@@H](O)[C@H](Cc1ccccc1)NC(=O)[C@@]1(O)CCCC1(C)C		HPLC	pH 5.5	<10 µM
CC(C)[C@H](NC(=O)COc1cccc2ccccc12)C(=O)N[C@@H](Cc1ccccc1)[C@H](O)C(=O)N1CSC[C@H]1C(=O)NC(C)(C)C		HPLC		0.0061 µM
O=C1c2ccccc2C(=O)c2c(O)ccc(O)c21		fluorescence		35 µM
C=C(C)[C@@H]1CC[C@]2(C(=O)O)CC[C@]3(C)[C@H](CC[C@@H]4[C@@]5(C)CC[C@H](OC(=O)CCCC(=O)O)C(C)(C)[C@@H]5CC[C@]43C)[C@@H]12		HPLC		4 µM
CC(C)(C)OC(=O)N[C@@H](Cc1ccccc1)[C@H](O)[C@H](O)[C@H](Cc1ccccc1)NC(=O)OC(C)(C)C		fluorescence		>0.01 µM
Cc1ccc(Nc2cccc3c2C(=O)c2cccc(Nc4ccc(C)cc4S(=O)(=O)O)c2C3=O)c(S(=O)(=O)O)c1		fluorescence		20 µM
COC(=O)[C@]12CC[C@@H](C)[C@H](C)[C@H]1C1=CC[C@@H]3[C@@]4(C)CC[C@H](O)C(C)(C)[C@@H]4CC[C@@]3(C)[C@]1(C)CC2		HPLC		14 µM
NC(Cc1ccccc1)C(O)C(F)(F)C(N)Cc1ccccc1		fluorescence		<0.005 µM
CSC[C@H](NC(=O)COc1cccc(Nc2ccccc2)c1)C(=O)N[C@@H](Cc1ccccc1)[C@H](O)C(=O)N1CSC(C)(C)[C@H]1C(=O)NC(C)(C)C		HPLC		0.0027 µM
Cc1ccc(Cl)cc1N1CCN(Cc2cn([C@@H](Cc3ccccc3)[C@H](Cc3ccccc3)NC(=O)CC3CCCC3)nn2)CC1		fluorescence		>5 µM
CC(C)(C)NC(=O)[C@H]1N(C(=O)[C@@H](O)[C@H](Cc2ccccc2)NC(=O)[C@H](CC(N)=O)NC(=O)COc2ccccc2-c2ccccc2)CSC1(C)C		HPLC		0.0028 µM
CC(C)(C)OC(=O)N[C@@H](Cc1ccccc1)[C@H](O)CNC[C@@H](O)[C@H](Cc1ccccc1)NC(=O)[C@@H](NC(=O)OCCOc1ccccc1)C(C)(C)C		HPLC	pH 5.5	<10 µM

4 of the rows above, restated:

structure	strain	method	setting	value
CC(C)(C)NC(=O)[C@@H]1CSCN1C(=O)[C@@H](O)[C@H](Cc1ccccc1)NC(=O)[C@@H](NC(=O)COc1cccc2ccccc12)C(C)(C)C		HPLC		0.0041 µM
CC(C)(C)NC(=O)[C@H]1N(C(=O)[C@@H](O)[C@H](Cc2ccccc2)NC(=O)[C@H](CC(N)=O)NC(=O)COc2ccccc2-c2ccccc2)CSC1(C)C		HPLC		0.0028 µM
CC(C)(C)CNC(=O)[C@@H]1CCCN1C(=O)[C@@H](O)[C@H](Cc1ccccc1)NC(=O)[C@H](CC(N)=O)NC(=O)OCc1ccccc1		HPLC		0.868 µM
O=C(O)CN(CC(=O)O)Cc1cc2c(c(O)c1O)C(=O)c1ccccc1C2=O		fluorescence		190 µM

Blank or dashed fields: not listed here. Conditions beyond the fields shown may differ between rows.